Measured values from several laboratories, pooled; numbers as filed in NIAID ChemDB.

Shared fields: growth or infection tests; species: HIV-1; cell line: MT-4; measure: EC50

Rows are shuffled and stem from different studies. ECn: concentration that inhibits the pathogen or its effect by n%. Blank or dashed fields: not listed here.

compound,strain or isolate,changes,method,value
O=CC1OC(=O)c2cc(O)c(O)c(O)c2Oc2cc3c(c(O)c2O)-c2c(cc(O)c(O)c2O)C(=O)OC2C(COC3=O)OC(OC(=O)c3cc(O)c(O)c(O)c3)C(OC(=O)c3cc(O)c(O)c(O)c3Oc3cc4c(c(O)c3O)-c3c(ccc(O)c3O)C(=O)OCC(O)C(OC4=O)C1OC(=O)c1cc(O)c(O)c(O)c1)C2OC(=O)c1cc(O)c(O)c(O)c1,IIIB,-,cytopathic effect / MTT,>100 µg/mL
CN1c2ccccc2C2C1C=C(c1noc(=O)[nH]1)C(=O)N2c1ccc([N+](=O)[O-])cc1,LAI,-,cytopathic effect / MTT,>32 µM
O=C(OC1C(OC(=O)c2cc(O)c(O)c(O)c2Oc2cc3c(c(O)c2O)-c2c(cc(O)c(O)c2O)C(=O)OCC2OC(OC(=O)c4cc(O)c(O)c(O)c4O)C(OC(=O)c4cc(O)c(O)c(O)c4)C(OC(=O)c4cc(O)c(O)c(O)c4)C2OC3=O)OC2COC(=O)c3ccc(O)c(O)c3-c3c(cc(O)c(O)c3O)C(=O)OC2C1OC(=O)c1cc(O)c(O)c(O)c1)c1cc(O)c(O)c(O)c1,IIIB,-,cytopathic effect / MTT,>100 µg/mL
COc1ccccc1Cn1c(-c2ccccc2F)nc2c(OC)cccc21,IIIB,-,-,0.0041 µg/mL
Cc1cccc(C)c1OCC(=O)N[C@@H](Cc1ccccc1)[C@H](O)CN(CC(C)C)S(=O)(=O)c1ccc2ncn(CC(C)C)c2c1,LAI WT,-,cytopathic effect / MTT,0.501 µM
Cc1ccc2sn(/N=C/c3ccc([N+](=O)[O-])cc3[N+](=O)[O-])c(=O)c2c1,-,Y181C,MTT,>100 µM
CC(C)CN(C[C@@H](O)[C@H](Cc1ccccc1)NC(=O)O[C@H]1CO[C@H]2OCC[C@H]21)S(=O)(=O)c1ccc2ncn(CCc3ccccc3)c2c1,LAI WT,-,cytopathic effect / MTT,0.002 µM
N#Cc1cc(Cl)cc(Oc2cc(Cl)cc(OCC(=O)Nc3ccc(C#N)cc3Cl)c2)c1,-,-,p24,<20 µM
O=C(OC[C@H]1O[C@@H](OC(=O)c2cc(O)c(O)c(O)c2)[C@H](OC(=O)c2cc(O)c(O)c(O)c2Oc2cc3c(c(O)c2O)-c2c(cc(O)c(O)c2O)C(=O)O[C@H]2[C@H](OC(=O)c4cc(O)c(O)c(O)c4)[C@@H](OC(=O)c4cc(O)c(O)c(O)c4)[C@H](OC(=O)c4cc(O)c(O)c(O)c4)O[C@@H]2COC3=O)[C@@H](OC(=O)c2cc(O)c(O)c(O)c2)[C@@H]1O)c1cc(O)c(O)c(O)c1,IIIB,-,cytopathic effect / MTT,>100 µg/mL
N#Cc1cc(Cl)cc(Oc2cc(Cl)cc(OCC(=O)NC3CCS(=O)(=O)C3)c2)c1,-,-,p24,<20 µM
CC=CCn1c(-c2ccccc2F)nc2c(OC)cccc21,IIIB,-,-,0.02 µg/mL
CC(C)CN(C[C@@H](O)[C@H](Cc1ccccc1)NC(=O)O[C@H]1CCOC1)S(=O)(=O)c1ccc2nc[nH]c2c1,LAI WT,-,cytopathic effect / MTT,0.079 µM
Cc1ccc2sn(/N=C/c3ccccc3O)c(=O)c2c1,-,Y181C,MTT,>30 µM
CC(C)CN(C[C@@H](O)[C@H](Cc1ccccc1)NC(=O)O[C@H]1CO[C@H]2OCC[C@H]21)S(=O)(=O)c1ccc2ncn(CCO)c2c1,LAI WT,-,cytopathic effect / MTT,0.794 µM
Cc1cc(/C=C/C#N)cc(C)c1Oc1nc(NC2CCN(Cc3cccc(Br)c3)CC2)nc2ccsc12,IIIB,NNRTI-resistant (RT Y181C),MTT,0.128 µM
CC1(C)CC=C(c2cn(-c3nccc(C(=O)NC4CCC(N5CC6CCC(C5)O6)CC4)n3)c3ccc(F)c([C@H](OC(C)(C)C)C(=O)O)c23)CC1,NL4-3,H171T,luminescence,0.054 µM
COc1cccc2c1nc(-c1ccccc1F)n2Cc1cccc(C)c1,IIIB,-,-,0.019 µg/mL
O=c1c2ccccc2sn1/N=C/c1ccc(O)c(O)c1,-,-,MTT,>44 µM
COc1cccc2c1nc(-c1ccccc1F)n2Cc1c(F)ccc(F)c1F,IIIB,-,-,0.0014 µg/mL
O=C(O[C@H]1O[C@@H]2COC(=O)c3cc(O)c(O)c(O)c3-c3c(cc(O)c(O)c3O)C(=O)O[C@H]2[C@@H]2OC(=O)c3cc(O)c(O)c(O)c3-c3c(cc(O)c(O)c3O)C(=O)O[C@@H]12)c1cc(O)c(O)c(Oc2c(C(=O)O[C@H]3O[C@@H]4COC(=O)c5cc(O)c(O)c(O)c5-c5c(cc(O)c(O)c5O)C(=O)O[C@H]4[C@@H]4OC(=O)c5cc(O)c(O)c(O)c5-c5c(cc(O)c(O)c5O)C(=O)O[C@@H]34)cc(O)c(O)c2O)c1,IIIB,-,cytopathic effect / MTT,>50 µg/mL
Cc1ccc2sn(/N=C/c3ccccc3F)c(=O)c2c1,-,EFV-resistant (K103 V179D P225H),MTT,>18 µM
CS(=O)(=O)c1ccc2c(c1)CCN2C(=O)COc1cc(Cl)cc(Oc2cc(Cl)cc(C#N)c2)c1,-,-,p24,<20 µM
Cc1ccc2sn(/N=C/c3cccc(O)c3)c(=O)c2c1,-,K103N + Y181C,MTT,>16 µM
Cc1cc(/C=C/C#N)cc(C)c1Oc1nc(NC2CCN(Cc3cccc(F)c3)CC2)nc2ccsc12,IIIB,NNRTI-resistant (RT Y188L),MTT,0.159 µM
Cc1nc2ccccc2c(-c2cc(F)c3c(c2C)CCCO3)c1[C@H](OC(C)(C)C)C(=O)O,NL4-3,L74I/T124A/G140S/Q148H,luminescence,0.018 µM
O=CC(OC(=O)c1cc(O)c(O)c(O)c1Oc1cc2c(c(O)c1O)-c1c(cc(O)c(O)c1O)C(=O)OC1C(COC2=O)OC(OC(=O)c2cc(O)c(O)c(O)c2)C(OC(=O)c2cc(O)c(O)c(O)c2)C1OC(=O)c1cc(O)c(O)c(O)c1)C(OC(=O)c1cc(O)c(O)c(O)c1)C1OC(=O)c2cc(c(O)c(O)c2O)-c2c(cc(O)c(O)c2O)C(=O)OCC1O,IIIB,-,cytopathic effect / MTT,>50 µg/mL
CN1c2ccccc2C2C1C=C(Br)C(=O)N2c1ccc([N+](=O)[O-])cc1,LAI,-,cytopathic effect / MTT,<1 µM
O=C1OC[C@H]2OC(OC(=O)c3cc(O)c(O)c(O)c3)C(OC(=O)c3cc(O)c(O)c(O)c3)C(OC(=O)c3cc(O)c(O)c(O)c3)[C@@H]2OC(=O)c2cc(O)c(O)c3c2C2C1=CC(=O)[C@@](O)(O3)C2(O)O,IIIB,-,cytopathic effect / MTT,>50 µg/mL
Cc1cc(C#N)cc(C)c1Oc1nc(NC2CCC(NCc3ccc(S(C)(=O)=O)cc3)CC2)nc2ccsc12,IIIB,NNRTI-resistant (RT L100I),MTT,≥197 µM
N#CC1=CC2C(c3ccccc3N2CCN2CCOCC2)N(c2ccc(C#N)cc2)C1=O,LAI,-,cytopathic effect / MTT,>32 µM
O=C(O)C[C@H]1C(=O)O[C@H]2[C@H](OC(=O)c3cc(O)c(O)c(O)c3)[C@@H](OC(=O)c3cc(O)c(O)c4c3[C@H]1[C@H](O)C(=O)O4)[C@H](OC(=O)c1cc(O)c(O)c(O)c1)O[C@@H]2COC(=O)c1cc(O)c(O)c(O)c1,IIIB,-,cytopathic effect / MTT,>25 µg/mL
CN1c2ccccc2C2C1C=CC(=O)N2c1ccc(-c2nc(=S)o[nH]2)cc1,LAI,-,cytopathic effect / MTT,>32 µM
Cc1cc(C#N)cc(C)c1Oc1nc(NC2CCC(NCc3ccccc3)CC2)nc2ccsc12,RES056,-,MTT,>2.98 µM
O=c1c2ccccc2sn1/N=C/c1cccc(O)c1,-,-,MTT,>15 µM
Cc1ccc(CN2CCC(Nc3nc(Oc4c(C)cc(/C=C/C#N)cc4C)c4sccc4n3)CC2)cc1,IIIB,NNRTI-resistant (RT E138K),MTT,0.0323 µM
O=C(OC1OC2COC(=O)c3cc(O)c(O)c(O)c3-c3c(cc(O)c(O)c3O)C(=O)OC2C(OC(=O)c2cc(O)c(O)c(O)c2)C1OC(=O)c1cc(O)c(O)c(O)c1)c1cc(O)c(O)c(Oc2c(C(=O)OC3OC4COC(=O)c5cc(O)c(O)c(O)c5-c5c(cc(O)c(O)c5O)C(=O)OC4C4OC(=O)c5cc(O)c(O)c(O)c5-c5c(cc(O)c(O)c5O)C(=O)OC34)cc(O)c(O)c2O)c1,IIIB,-,cytopathic effect / MTT,7.7 µg/mL
N#Cc1cccc(Oc2cc(Cl)cc(OCC(=O)Nc3ccc(S(N)(=O)=O)cc3Cl)c2)c1,-,-,p24,<20 µM
Cc1cc(C#N)cc(C)c1Oc1nc(NC2CCN(Cc3ccc(S(N)(=O)=O)cc3)CC2)nc2sccc12,RES056,-,MTT,0.0387 µM

For reference, 2 entries again:

compound	strain or isolate	changes	method	value
O=C1OC[C@H]2OC(OC(=O)c3cc(O)c(O)c(O)c3)C(OC(=O)c3cc(O)c(O)c(O)c3)C(OC(=O)c3cc(O)c(O)c(O)c3)[C@@H]2OC(=O)c2cc(O)c(O)c3c2C2C1=CC(=O)[C@@](O)(O3)C2(O)O	IIIB	-	cytopathic effect / MTT	>50 µg/mL
O=c1c2ccccc2sn1/N=C/c1cccc(O)c1	-	-	MTT	>15 µM